Measured values from several laboratories, pooled; numbers as filed in NIAID ChemDB.

All rows: growth or infection tests; species: HIV-1

ECn is the concentration giving n% inhibition of infection, replication or growth.

| SMILES | mutations | strain | method | cells | read-out | result |
|---|---|---|---|---|---|---|
| CCCCS1(=O)=NC(=O)Nc2ccccc21 | - | IIIB | cytopathic effect / XTT | CEM + CEM-SS | EC50 | >280 µM |
| CC(C)[C@@H]1[C@H](OC(=O)N[C@@H](Cc2ccccc2)[C@H](O)CN2C[C@H]3CCCC[C@H]3C[C@H]2C(=O)NC(C)(C)C)CCS1(=O)=O | - | IIIB | p24 | MT-4 | EC50 | <0.05 µM |
| C/C(=C(/CCO)SSCC1CCCO1)N(C=O)Cc1cnc(C)nc1N | - | IIIB | p24 | MOLT-4/HIV-1(IIIB) + MOLT-4 | EC50 | >50 µM |
| CC(C)CN(C[C@@H](O)[C@H](Cc1ccccc1)NC(=O)O[C@H]1CCO[C@H]2OCC[C@H]21)S(=O)(=O)c1ccc2nc(NC3CC3)sc2c1 | L10I I54V K20R L24I V32I L33F M36I M46I I54M L63P K70Q V82I I84V L89M | NL4-3 | p24 / luminescence | MT-4 | EC50 | >1 µM |
| CC(C)(C)NC(=O)[C@@H]1CN(Cc2cccnc2)CCN1C[C@@H](O)C[C@@H](Cc1ccccc1)C(=O)N[C@H]1c2ccccc2C[C@H]1O | PR-L10I K20R M36I/V P63L/S L90M | BR60 (PR L10I K20R M36I/V P63L/S L90M) | p24 | PBMC | EC50 | 0.008 µM |
| C1=C\CCCCN(CC[C@H]2NCCc3c2[nH]c2ccccc32)CCCC/1 | - | NL4-3 | GFP / reporter gene | CEM-GXR | EC50 | 3.4 µM |
| CC(C)CN(C[C@@H](O)[C@H](Cc1ccccc1)NC(=O)[C@H](CC(N)=O)NC(=O)c1ccc2ccccc2n1)C(=O)NC(C)(C)C | PR-G48V I54V A71T V82A | RF | - | MT-2 | EC50 | 1.79 µM |
| Cc1cc(Br)cc(S(=O)(=O)c2cccc(N)c2C#N)c1 | RT-L100I K103N | - | β-galactosidase | HeLa + HELA CD4+ | EC50 | 3 µM |
| COc1ccc2c(c1)N(C(=O)OC(C)C)[C@@H](CSC)C(=S)N2 | RT-G190E | A1(RT-G190E) | p24 | H9 | EC50 | >10 µg/mL |
| Cc1nnc(C(=O)NC(C)(C)c2nc(C(=O)NCc3ccc(F)cc3)c(O)c(=O)n2C)o1 | - | NL4-3 | GFP / reporter gene | CEM-GXR | EC50 | 0.011 µM |
| C[C@@H]1OCC[C@@H]1OC(=O)N[C@@H](Cc1ccccc1)[C@H](O)CN1C[C@H]2CCCC[C@H]2C[C@H]1C(=O)NC(C)(C)C | - | IIIB | p24 | MT-4 | EC50 | <0.4 µM |
| CN[C@H]1CO[C@@H]2OCC[C@H](OC(=O)N[C@@H](Cc3cccc(OC)c3)[C@H](O)CN(CC(C)C)S(=O)(=O)c3ccc4nc(NC(C)C)sc4c3)[C@@H]21 | L10I L33I M36I M46I I54V K55R I62V L63P A71V G73S V82T L90M I93L | NL4-3 | p24 / luminescence | MT-4 | EC50 | 0.024 µM |
| O=C1N(Cc2ccc(CO)cc2)[C@H](Cc2ccccc2)[C@H](O)[C@@H](O)[C@@H](Cc2ccccc2)N1Cc1ccc(CO)cc1 | PR-L10R | NL4-3 | p24 | MT-4 | EC95 | 0.2 µM |
| Cc1cc(Cl)cc(S(=O)(=O)c2cccc(N)c2C#N)c1 | RT-K103N Y181C | - | β-galactosidase | HeLa + HELA CD4+ | EC50 | >50 µM |
| CCOC(=O)C(=O)CC(=O)c1cccc(Oc2ccnc(Nc3ccc(C#N)cc3)n2)c1 | Y181C | IIIB | MTT | MT-4 | EC50 | >13 µM |
| CCN[C@H]1CO[C@@H]2OCC[C@H](OC(=O)N[C@@H](Cc3ccccc3)[C@H](O)CN(CC(C)C)S(=O)(=O)c3ccc4nc(NC5CC5)sc4c3)[C@@H]21 | L10I I15V K20R L24I V32I M36I M46I L63P K70Q V82A I84V L89M | NL4-3 | p24 / luminescence | MT-4 | EC50 | 0.0051 µM |
| CC(C)(C)NC(=O)[C@@H]1C[C@@H]2CCCC[C@@H]2CN1C[C@@H](O)[C@H](Cc1ccccc1)NC(=O)[C@H](CC(N)=O)NC(=O)c1ccc2ccccc2n1 | PR-M46I L63P V82T I84V | NL4-3 | p24 | MT-4 | EC50 | <0.2 µM |
| CC(C)CN(C[C@@H](O)[C@H](Cc1ccccc1)NC(=O)O[C@H]1CCOC1)S(=O)(=O)c1ccc(N)cc1 | L10I I15V K20R L24I V32I M36I M46I L63P K70Q V82A I84V L89M | NL4-3 | p24 / luminescence | MT-4 | EC50 | >1 µM |
| Cc1ccnc2c1NC(=O)c1cccnc1N2C1CC1 | - | MN | p24 | H9 | EC50 | 0.09 µg/mL |
| Cc1c(N)nc([C@H](CC(N)=O)NC[C@H](N)C(N)=O)nc1C(=O)N[C@H](C(=O)N[C@H](C)[C@@H](O)[C@H](C)C(=O)N[C@H](C(=O)NCCc1nc(-c2nc(C(=O)NCCC[S+](C)C)cs2)cs1)[C@@H](C)O)C(O[C@@H]1O[C@@H](CO)[C@@H](O)[C@H](O)[C@@H]1O[C@H]1O[C@H](CO)[C@@H](O)[C@H](OC(N)=O)[C@@H]1O)c1cnc[nH]1 | - | BaL | XTT / p24 | Macrophage + Monocytes/macrophages | EC50 | >0.3 µg/mL |
| O=S1(c2ccccc2)=NC(=S)Nc2ccccc21 | - | RF | cytopathic effect / XTT | CEMx174 + CEM | EC50 | 3.28 µM |
| Cc1cc(O)cc(S(=O)(=O)c2cccc(N)c2C#N)c1 | RT-K103N | - | β-galactosidase | HeLa + HELA CD4+ | EC50 | 10.5 µM |
| CC(C)(C)NC(=O)[C@@H]1C[C@@H]2CCCC[C@@H]2CN1C[C@@H](O)[C@H](Cc1ccccc1)NC(=O)O[C@@H]1CCS(=O)(=O)[C@@H]1C1CCCC1 | - | IIIB | p24 | MT-4 | EC50 | <1.5 µM |
| Cc1cn([C@H]2C[C@H](N=[N+]=[N-])[C@@H](CO)O2)c(=O)[nH]c1=O | - | KMR50 | cytopathic effect / trypan blue | MT-4 | EC50 | 0.005 µM |
| COC(=O)N[C@H](C(=O)N[C@@H](Cc1ccccc1)[C@@H](O)CN(Cc1ccc(-c2ccccn2)cc1)NC(=O)[C@@H](NC(=O)OC)C(C)(C)C)C(C)(C)C | - | NL4-3 | p24 / luminescence | MT-4 | EC50 | 0.0047 µM |
| C[C@H]1CS(=O)(=O)C[C@H]1OC(=O)N[C@@H](Cc1ccccc1)[C@H](O)CN1C[C@H]2CCCC[C@H]2C[C@H]1C(=O)NC(C)(C)C | - | IIIB | p24 | MT-4 | EC50 | <0.8 µM |
| Cc1ccnc2c1NC(=O)c1cccnc1N2C1CC1 | F227L + V106A | IIIB | MTT | MT-4 | EC50 | >15 µM |
| Cc1ccnc2c1NC(=O)c1cccnc1N2C1CC1 | RT-Y188L | - | cytopathic effect / MTT | MT-4 | EC50 | >10 µM |
| COc1cc(C(F)(F)F)cc(S(=O)(=O)c2cccc(N)c2C#N)c1 | RT-V106A | - | β-galactosidase | HeLa + HELA CD4+ | EC50 | 0.0029 µM |
| CC(C)(C)NC(=O)[C@@H]1C[C@@H]2CCC[C@@H]2CN1C[C@@H](O)[C@H](Cc1ccccc1)NC(=O)O[C@H]1CCOC1 | - | IIIB | p24 | MT-4 | EC50 | <0.4 µM |
| N#Cc1ccc(Nc2nccc(Oc3ccc(C(=O)CC(=O)C(=O)O)cc3)n2)cc1 | F227L + V106A | IIIB | MTT | MT-4 | EC50 | >48 µM |

The last 3 rows once more:

SMILES	mutations	strain	method	cells	read-out	result
COc1cc(C(F)(F)F)cc(S(=O)(=O)c2cccc(N)c2C#N)c1	RT-V106A	-	β-galactosidase	HeLa + HELA CD4+	EC50	0.0029 µM
CC(C)(C)NC(=O)[C@@H]1C[C@@H]2CCC[C@@H]2CN1C[C@@H](O)[C@H](Cc1ccccc1)NC(=O)O[C@H]1CCOC1	-	IIIB	p24	MT-4	EC50	<0.4 µM
N#Cc1ccc(Nc2nccc(Oc3ccc(C(=O)CC(=O)C(=O)O)cc3)n2)cc1	F227L + V106A	IIIB	MTT	MT-4	EC50	>48 µM

Neighbouring rows are from separate reports. Blank or dashed fields: not listed here.